Experimental data taken from patent US8257946B2, “Cysteine protease autoprocessing of fusion proteins” (dated 2012).

Amino acid sequences for entries named in this document (tags omitted). Residues count along the entry.
UniProt Q9KS12, 3462-3646 limits assumed: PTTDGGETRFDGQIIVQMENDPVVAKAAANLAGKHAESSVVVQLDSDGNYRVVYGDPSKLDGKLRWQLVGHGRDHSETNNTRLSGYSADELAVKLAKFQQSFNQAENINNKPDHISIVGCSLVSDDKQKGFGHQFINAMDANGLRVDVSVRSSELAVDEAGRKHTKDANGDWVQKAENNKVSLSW

Key:
[1] = target: T1, rCPD (cysteine protease domain of the Vibrio cholerae MARTX toxin) (Vibrio cholerae serotype O1, UniProt Q9KS12); details: FIG. 4; 100 μM InsP6
[2] = target: T1, rCPD (cysteine protease domain of the Vibrio cholerae MARTX toxin); experiment: InsP6 binding to recombinant CPD; details: read-out: binding constant for InsP6

Compound: O=P(O)(O)O[C@H]1[C@H](OP(=O)(O)O)[C@@H](OP(=O)(O)O)[C@H](OP(=O)(O)O)[C@@H](OP(=O)(O)O)[C@H]1OP(=O)(O)O
- induction of autoprocessing of rCPD [1]: induces autoprocessing of rCPD
- Kd [2]: 600 nM
